Drawing on ChEMBL document CHEMBL4364262 (J Med Chem, 2019), this text covers Ratio IC50 and FC for 18 compounds.

Sequences of proteins named here, by UniProt entry; tags and fusion partners are left off.
UniProt P04757, whole entry, looked up: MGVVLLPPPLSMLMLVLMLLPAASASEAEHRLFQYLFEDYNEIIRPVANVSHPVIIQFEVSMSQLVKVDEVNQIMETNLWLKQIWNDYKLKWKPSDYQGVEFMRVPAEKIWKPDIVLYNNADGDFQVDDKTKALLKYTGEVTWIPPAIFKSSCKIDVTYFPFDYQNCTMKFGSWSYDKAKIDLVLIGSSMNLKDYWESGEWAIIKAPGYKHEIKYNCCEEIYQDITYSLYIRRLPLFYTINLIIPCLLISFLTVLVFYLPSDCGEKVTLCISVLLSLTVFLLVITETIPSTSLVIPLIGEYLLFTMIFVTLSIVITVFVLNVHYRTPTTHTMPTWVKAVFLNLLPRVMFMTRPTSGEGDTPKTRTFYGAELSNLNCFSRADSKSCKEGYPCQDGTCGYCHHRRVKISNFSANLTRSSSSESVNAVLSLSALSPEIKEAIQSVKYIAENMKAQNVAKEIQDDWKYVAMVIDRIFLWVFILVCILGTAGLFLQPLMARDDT
UniProt P12390, whole entry, looked up: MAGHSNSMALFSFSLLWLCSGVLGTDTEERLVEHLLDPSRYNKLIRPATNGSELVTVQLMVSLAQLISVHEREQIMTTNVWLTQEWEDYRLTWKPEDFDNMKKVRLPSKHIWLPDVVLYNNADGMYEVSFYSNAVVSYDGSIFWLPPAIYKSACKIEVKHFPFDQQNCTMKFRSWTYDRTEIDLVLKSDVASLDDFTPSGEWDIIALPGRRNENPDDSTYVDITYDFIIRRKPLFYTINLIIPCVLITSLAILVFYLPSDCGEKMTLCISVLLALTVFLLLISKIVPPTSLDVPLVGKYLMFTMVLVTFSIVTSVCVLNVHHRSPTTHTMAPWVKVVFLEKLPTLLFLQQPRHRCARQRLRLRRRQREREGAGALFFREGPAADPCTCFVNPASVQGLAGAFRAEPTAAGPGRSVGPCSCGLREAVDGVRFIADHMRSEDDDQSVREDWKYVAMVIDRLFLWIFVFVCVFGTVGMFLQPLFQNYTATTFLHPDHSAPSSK

Assay [1] is filed under the species Rattus norvegicus. In words: Selectivity ratio, ratio of IC50 for rat alpha7 nAChR expressed in Xenopus laevis oocytes to IC50 for rat alpha3beta2 nACHR expressed in Xenopus laevis oocytes.
Assay [2] is filed under the species Rattus norvegicus. The assay is described as follows: Selectivity ratio, ratio of IC50 for rat alpha3beta4 nACHR expressed in Xenopus laevis oocytes to IC50 for rat alpha3beta2 nACHR expressed in Xenopus laevis oocytes.
The species named for assay [3] is Rattus norvegicus. The assay is described as follows: Selectivity ratio, ratio of IC50 for rat alpha4beta2 nACHR expressed in Xenopus laevis oocytes to IC50 for rat alpha3beta2 nACHR expressed in Xenopus laevis oocytes.
The species named for assay [4] is Rattus norvegicus. In words: Selectivity ratio of IC50 for rat alpha6/alpha3beta2beta3 nAChR expressed in Xenopus laevis oocytes to IC50 for rat alpha3beta2 nACHR expressed in Xenopus laevis oocytes.
The species named for assay [5] is Rattus norvegicus. The assay is described as follows: Selectivity ratio, ratio of IC50 for rat alpha6alpha3beta4 nAChR expressed in Xenopus laevis oocytes to IC50 for rat alpha3beta2 nACHR expressed in Xenopus laevis oocytes.
In assay [6] the target is Neuronal acetylcholine receptor; alpha3/beta2 (Rattus norvegicus) (UniProt P04757+P12390). The assay is described as follows: Antagonist activity at rat alpha3beta2 nACHR expressed in Xenopus laevis oocytes assessed as inhibition of Ach-induced response at -70 mV holding potential by two electrode voltage-clamp assay relative to PeIA logIC50.

For `CCCC[C@@H]1NC(=O)[C@H](Cc2cnc[nH]2)NC(=O)[C@@H]2CSSC[C@H](NC(=O)CN)C(=O)N[C@@H](CSSC[C@@H](C(N)=O)NC(=O)[C@H](CC(C)C)NC(=O)[C@H](CCC(=O)O)NC(=O)[C@@H]3CCCN3C(=O)[C@H](Cc3cnc[nH]3)NC(=O)[C@H](CCCCC(=O)O)NC1=O)C(=O)N[C@@H](CO)C(=O)N[C@@H](Cc1cnc[nH]1)C(=O)N1CCC[C@H]1C(=O)N[C@@H](C)C(=O)N2`, the Ratio IC50 was found to be 14 in assay [1]; 129 in assay [2]; 1460 in assay [3]; 220 in assay [4]; 92 in assay [5].

Turning to `CCCC[C@@H]1NC(=O)[C@H](CO)NC(=O)[C@@H]2CSSC[C@H](NC(=O)CN)C(=O)N[C@@H](CSSC[C@@H](C(N)=O)NC(=O)[C@H](CC(C)C)NC(=O)[C@H](CCC(=O)O)NC(=O)[C@@H]3CCCN3C(=O)[C@H](Cc3cnc[nH]3)NC(=O)[C@H](CC(N)=O)NC1=O)C(=O)N[C@@H](CO)C(=O)N[C@@H](Cc1cnc[nH]1)C(=O)N1CCC[C@H]1C(=O)N[C@@H](C)C(=O)N2`, the Ratio IC50 in assay [4] was determined as 2. In addition, in assay [6], the FC is -0.3.

`CC(C)C[C@@H]1NC(=O)[C@H](CCCCCC(=O)O)NC(=O)[C@@H]2CCCN2C(=O)[C@H](Cc2cnc[nH]2)NC(=O)[C@H](CC(N)=O)NC(=O)[C@H](C(C)C)NC(=O)[C@H](CO)NC(=O)[C@@H]2CSSC[C@H](NC(=O)CN)C(=O)N[C@@H](CSSC[C@@H](C(N)=O)NC1=O)C(=O)N[C@@H](CO)C(=O)N[C@@H](Cc1cnc[nH]1)C(=O)N1CCC[C@H]1C(=O)N[C@@H](C)C(=O)N2`: the Ratio IC50 in assay [4] worked out at 1. Also, in assay [6], the FC is 0.9.

As for `CCCC[C@@H]1NC(=O)[C@H](CCC(=O)O)NC(=O)[C@@H]2CCCN2C(=O)[C@H](Cc2cnc[nH]2)NC(=O)[C@H](CC(N)=O)NC(=O)[C@H](C(C)C)NC(=O)[C@H](CO)NC(=O)[C@@H]2CSSC[C@H](NC(=O)CN)C(=O)N[C@@H](CSSC[C@@H](C(N)=O)NC1=O)C(=O)N[C@@H](CO)C(=O)N[C@@H](Cc1cnc[nH]1)C(=O)N1CCC[C@H]1C(=O)N[C@@H](C)C(=O)N2`, the Ratio IC50 in assay [4] worked out at 0.6. For the same compound, the FC in assay [6] stood at 0.1.

For the compound `CC(C)C[C@@H]1NC(=O)[C@H](CCC(=O)O)NC(=O)[C@@H]2CCCN2C(=O)[C@H](Cc2cnc[nH]2)NC(=O)[C@H](CC(N)=O)NC(=O)[C@H](CC(C)C)NC(=O)[C@H](CO)NC(=O)[C@@H]2CSSC[C@H](NC(=O)CN)C(=O)N[C@@H](CSSC[C@@H](C(N)=O)NC1=O)C(=O)N[C@@H](CO)C(=O)N[C@@H](Cc1cnc[nH]1)C(=O)N1CCC[C@H]1C(=O)N[C@@H](C)C(=O)N2`, the Ratio IC50 in assay [4] came to 2. In assay [6], the FC was -0.3.

For the compound `CC(C)C[C@@H]1NC(=O)[C@H](CCC(=O)O)NC(=O)[C@@H]2CCCN2C(=O)[C@H](Cc2cnc[nH]2)NC(=O)[C@H](CCCC(=O)O)NC(=O)[C@H](C(C)C)NC(=O)[C@H](CO)NC(=O)[C@@H]2CSSC[C@H](NC(=O)CN)C(=O)N[C@@H](CSSC[C@@H](C(N)=O)NC1=O)C(=O)N[C@@H](CO)C(=O)N[C@@H](Cc1cnc[nH]1)C(=O)N1CCC[C@H]1C(=O)N[C@@H](C)C(=O)N2`, the Ratio IC50 in assay [4] turned out to be 81. The FC in assay [6] is 0.8.

In the case of `CC(C)C[C@@H]1NC(=O)[C@H](CCC(=O)O)NC(=O)[C@@H]2CCCN2C(=O)[C@H](Cc2cnc[nH]2)NC(=O)[C@H](CC(N)=O)NC(=O)[C@H](C(C)C)NC(=O)[C@H]([C@@H](C)O)NC(=O)[C@@H]2CSSC[C@H](NC(=O)CN)C(=O)N[C@@H](CSSC[C@@H](C(N)=O)NC1=O)C(=O)N[C@@H](CO)C(=O)N[C@@H](Cc1cnc[nH]1)C(=O)N1CCC[C@H]1C(=O)N[C@@H](C)C(=O)N2`, in assay [4], the Ratio IC50 was 1. Also, in assay [6], the FC was -0.4.

On to `CC[C@H](C)[C@@H]1NC(=O)[C@H](CO)NC(=O)[C@@H]2CSSC[C@H](NC(=O)CN)C(=O)N[C@@H](CSSC[C@@H](C(N)=O)NC(=O)[C@H](CC(C)C)NC(=O)[C@H](CCC(=O)O)NC(=O)[C@@H]3CCCN3C(=O)[C@H](Cc3cnc[nH]3)NC(=O)[C@H](CC(N)=O)NC1=O)C(=O)N[C@@H](CO)C(=O)N[C@@H](Cc1cnc[nH]1)C(=O)N1CCC[C@H]1C(=O)N[C@@H](C)C(=O)N2`, for which the Ratio IC50 in assay [4] amounted to 1. The FC in assay [6] is -0.2.

Take `CC(C)[C@@H]1NC(=O)[C@H](CCC(=O)O)NC(=O)[C@@H]2CCCN2C(=O)[C@H](Cc2cnc[nH]2)NC(=O)[C@H](CC(N)=O)NC(=O)[C@H](C(C)C)NC(=O)[C@H](CO)NC(=O)[C@@H]2CSSC[C@H](NC(=O)CN)C(=O)N[C@@H](CSSC[C@@H](C(N)=O)NC1=O)C(=O)N[C@@H](CO)C(=O)N[C@@H](Cc1cnc[nH]1)C(=O)N1CCC[C@H]1C(=O)N[C@@H](C)C(=O)N2`: the Ratio IC50 in assay [4] was 0.1. Besides, in assay [6], the FC worked out at 0.3.

For `CC[C@H](C)[C@@H]1NC(=O)[C@H](Cc2cnc[nH]2)NC(=O)[C@@H]2CSSC[C@H](NC(=O)CN)C(=O)N[C@@H](CSSC[C@@H](C(N)=O)NC(=O)[C@H](CC(C)C)NC(=O)[C@H](CCC(=O)O)NC(=O)[C@@H]3CCCN3C(=O)[C@H](Cc3cnc[nH]3)NC(=O)[C@H](CCCCC(=O)O)NC1=O)C(=O)N[C@@H](CO)C(=O)N[C@@H](Cc1cnc[nH]1)C(=O)N1CCC[C@H]1C(=O)N[C@@H](C)C(=O)N2`, the Ratio IC50 stood at 84 in assay [1]; 1330 in assay [2]; 742 in assay [3]; 59 in assay [4]; 114 in assay [5].

As to `CC[C@H](C)[C@@H]1NC(=O)[C@H](CCC(=O)O)NC(=O)[C@@H]2CCCN2C(=O)[C@H](Cc2cnc[nH]2)NC(=O)[C@H](CCCCC(=O)O)NC(=O)[C@H]([C@@H](C)CC)NC(=O)[C@H](Cc2cnc[nH]2)NC(=O)[C@@H]2CSSC[C@H](NC(=O)CN)C(=O)N[C@@H](CSSC[C@@H](C(N)=O)NC1=O)C(=O)N[C@@H](CO)C(=O)N[C@@H](Cc1cnc[nH]1)C(=O)N1CCC[C@H]1C(=O)N[C@@H](C)C(=O)N2`, the Ratio IC50 in assay [1] worked out at 60; in assay [2], 595; in assay [3], 998; in assay [4] it was 102; in assay [5], 134.

Regarding `CC(C)C[C@@H]1NC(=O)[C@H](CCC(=O)O)NC(=O)[C@@H]2CCCN2C(=O)[C@H](Cc2cnc[nH]2)NC(=O)[C@H](CC(N)=O)NC(=O)[C@H](C(C)C)NC(=O)[C@H](CC(N)=O)NC(=O)[C@@H]2CSSC[C@H](NC(=O)CN)C(=O)N[C@@H](CSSC[C@@H](C(N)=O)NC1=O)C(=O)N[C@@H](CO)C(=O)N[C@@H](Cc1cnc[nH]1)C(=O)N1CCC[C@H]1C(=O)N[C@@H](C)C(=O)N2`, the Ratio IC50 in assay [4] is 2. Further, the FC in assay [6] is -0.3.

On to `CC(C)[C@@H]1NC(=O)[C@H](CO)NC(=O)[C@@H]2CSSC[C@H](NC(=O)CN)C(=O)N[C@@H](CSSC[C@@H](C(N)=O)NC(=O)[C@H](CCCNC(=N)N)NC(=O)[C@H](CCC(=O)O)NC(=O)[C@@H]3CCCN3C(=O)[C@H](Cc3cnc[nH]3)NC(=O)[C@H](CC(N)=O)NC1=O)C(=O)N[C@@H](CO)C(=O)N[C@@H](Cc1cnc[nH]1)C(=O)N1CCC[C@H]1C(=O)N[C@@H](C)C(=O)N2`, for which the Ratio IC50 in assay [4] came out at 0.3. Also, the FC in assay [6] was determined as 0.9.

Regarding `CC(C)C[C@@H]1NC(=O)[C@H](CCC(=O)O)NC(=O)[C@@H]2CCCN2C(=O)[C@H](Cc2cnc[nH]2)NC(=O)[C@H](CC(N)=O)NC(=O)[C@H](C(C)C)NC(=O)[C@H](Cc2cnc[nH]2)NC(=O)[C@@H]2CSSC[C@H](NC(=O)CN)C(=O)N[C@@H](CSSC[C@@H](C(N)=O)NC1=O)C(=O)N[C@@H](CO)C(=O)N[C@@H](Cc1cnc[nH]1)C(=O)N1CCC[C@H]1C(=O)N[C@@H](C)C(=O)N2`, the Ratio IC50 in assay [4] is 1. In addition, the FC in assay [6] is -1.2.

As for `CC(C)C[C@@H]1NC(=O)[C@H](CCC(=O)O)NC(=O)[C@@H]2CCCN2C(=O)[C@H](Cc2cnc[nH]2)NC(=O)[C@H](CC(=O)O)NC(=O)[C@H](C(C)C)NC(=O)[C@H](CO)NC(=O)[C@@H]2CSSC[C@H](NC(=O)CN)C(=O)N[C@@H](CSSC[C@@H](C(N)=O)NC1=O)C(=O)N[C@@H](CO)C(=O)N[C@@H](Cc1cnc[nH]1)C(=O)N1CCC[C@H]1C(=O)N[C@@H](C)C(=O)N2`, the Ratio IC50 in assay [4] amounted to 7. In addition, the FC in assay [6] was determined as 0.4.

Consider `CC(C)C[C@@H]1NC(=O)[C@H](CCC(N)=O)NC(=O)[C@@H]2CCCN2C(=O)[C@H](Cc2cnc[nH]2)NC(=O)[C@H](CC(N)=O)NC(=O)[C@H](C(C)C)NC(=O)[C@H](CO)NC(=O)[C@@H]2CSSC[C@H](NC(=O)CN)C(=O)N[C@@H](CSSC[C@@H](C(N)=O)NC1=O)C(=O)N[C@@H](CO)C(=O)N[C@@H](Cc1cnc[nH]1)C(=O)N1CCC[C@H]1C(=O)N[C@@H](C)C(=O)N2`, for which the Ratio IC50 in assay [4] came to 0.2. Moreover, the FC in assay [6] was found to be 0.6.

For `CC[C@H](C)[C@@H]1NC(=O)[C@H](CCC(=O)O)NC(=O)[C@@H]2CCCN2C(=O)[C@H](Cc2cnc[nH]2)NC(=O)[C@H](CC(N)=O)NC(=O)[C@H](C(C)C)NC(=O)[C@H](CO)NC(=O)[C@@H]2CSSC[C@H](NC(=O)CN)C(=O)N[C@@H](CSSC[C@@H](C(N)=O)NC1=O)C(=O)N[C@@H](CO)C(=O)N[C@@H](Cc1cnc[nH]1)C(=O)N1CCC[C@H]1C(=O)N[C@@H](C)C(=O)N2`, the Ratio IC50 in assay [4] is 2. Moreover, the FC in assay [6] was -0.5.

For `CC(C)C[C@@H]1NC(=O)[C@H](CCC(=O)O)NC(=O)[C@@H]2CCCN2C(=O)[C@H](Cc2cnc[nH]2)NC(=O)[C@H](CC(N)=O)NC(=O)[C@H](C(C)C)NC(=O)[C@H](Cc2ccc(O)cc2)NC(=O)[C@@H]2CSSC[C@H](NC(=O)CN)C(=O)N[C@@H](CSSC[C@@H](C(N)=O)NC1=O)C(=O)N[C@@H](CO)C(=O)N[C@@H](Cc1cnc[nH]1)C(=O)N1CCC[C@H]1C(=O)N[C@@H](C)C(=O)N2`, in assay [4], the Ratio IC50 amounted to 1. Besides, in assay [6], the FC is -0.3.
